# HIV-1 NL4-3 point mutations in Gag: replication capacity

Reference: Al-Mawsawi et al. 2014, doi:10.1186/s12977-014-0124-6.

Protein: Gag of HIV-1 NL4-3, numbered from its first residue. Gag is numbered as the whole polyprotein.
Effects on overlapping genes or RNA elements are not listed.

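Seven fragments of pNL4-3 were mutated by error-prone PCR, and each virus pool was passaged in CEM T cells. Sequencing gave the RC index: frequency after two rounds over frequency in the input plasmid.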

RC index: lower means poorer replication; rough cut-offs are 0.1 (lethal) and 0.2 (tolerated). Substitutions are written as wild-type residue, site number, new residue. Input reads are the counts in the plasmid library. The authors read an index above 1 as above wild type (1.9% of all changes in the genome). Since each clone held several changes (about five per kb), neutral changes can read low. Base changes are numbered along pNL4-3.

substitution	base	region	input reads	RC
F300S	T1688C	CA	219	0.103
Y301C	A1691G	CA	84	0.0539
T303S	A1696T	CA	211	0.0536
T303N	C1697A	CA	71	0.127
T303I	C1697T	CA	139	0.195
L304P	T1700C	CA	291	0.0855
R305K	G1703A	CA	106	0.448
A306S	G1705T	CA	147	0.785
Q308K	C1711A	CA	60	0.151
Q308R	A1712G	CA	330	0.0343
Q308L	A1712T	CA	203	0.0446
Q308H	A1713C	CA	56	0.0404
A309T	G1714A	CA	295	0.0844
A309P	G1714C	CA	53	0.299
A309G	C1715G	CA	99	0.0686
A309V	C1715T	CA	364	0.106
Q311K	C1720A	CA	34	0.133
E312K	G1723A	CA	258	0.105
K314R	A1730G	CA	226	0.0300
W316R	T1735A	CA	210	0.0431
W316R	T1735C	CA	331	0.0615
M317L	A1738T	CA	180	0.0377
M317I	G1740T	CA	121	0.299
T318S	A1741T	CA	333	0.0476
T318I	C1742T	CA	313	0.101
E319V	A1745T	CA	105	0.0431
T320P	A1747C	CA	46	0.0492
T320N	C1748A	CA	62	0.0365
L321M	T1750A	CA	241	0.0469
L321V	T1750G	CA	39	0.0580
L322S	T1754C	CA	241	0.0845
V323F	G1756T	CA	119	0.114
Q324R	A1760G	CA	273	0.0332
N325D	A1762G	CA	179	0.0379
N325S	A1763G	CA	228	0.0595
A326T	G1765A	CA	216	0.189
A326E	C1766A	CA	87	0.0520
A326G	C1766G	CA	80	0.0566
N327D	A1768G	CA	201	0.0338
N327S	A1769G	CA	216	0.0419
N327K	C1770G	CA	104	0.0218
P328T	C1771A	CA	94	0.289
P328S	C1771T	CA	319	0.106
D329N	G1774A	CA	212	0.128
D329G	A1775G	CA	146	0.0620
C330S	T1777A	CA	323	0.0280
C330R	T1777C	CA	270	0.0754
T332N	C1784A	CA	58	0.499
T332I	C1784T	CA	493	0.104
I333V	A1786G	CA	206	0.0331
I333N	T1787A	CA	513	0.0432
I333T	T1787C	CA	253	0.0673
L334S	T1790C	CA	258	0.0528
L334F	A1791T	CA	81	0.260
A336T	G1795A	CA	296	0.115
G338R	G1801A	CA	88	0.319
G338E	G1802A	CA	101	0.313
G338V	G1802T	CA	62	0.0943
G340E	G1808A	CA	137	0.179
L343Q	T1817A	CA	192	0.0122
E345V	A1823T	CA	216	0.0162
M346L	A1825T	CA	141	0.0415
M346I	G1827T	CA	42	0.0557
A349T	G1834A	CA	224	0.151
C350R	T1837C	CA	194	0.0362
C350Y	G1838A	CA	146	0.0561
Q351K	C1840A	CA	119	0.246
G352R	G1843A	CA	65	0.198
G352V	G1844T	CA	143	0.114
V353M	G1846A	CA	112	0.240
V353L	G1846T	CA	38	0.0923
G354W	G1849T	CA	200	0.0526
G354E	G1850A	CA	140	0.301
G355R	G1852A	CA	326	0.141
P356H	C1856A	CA	473	0.0442
G357S	G1858A	CA	395	0.561
G357C	G1858T	CA	291	0.0383
H358Y	C1861T	CA	221	0.101
H358R	A1862G	CA	483	0.00866
H358L	A1862T	CA	284	0.00982
H358Q	T1863A	CA	137	0.0102
K359T	A1865C	CA	240	0.0116
K359R	A1865G	CA	487	0.0143
K359I	A1865T	CA	784	0.0231
A360T	G1867A	CA	579	0.101
A360P	G1867C	CA	133	0.0629
A360E	C1868A	CA	101	0.0276
A360V	C1868T	CA	494	0.0706
R361K	G1871A	CA	175	0.343
R361S	A1872T	CA	361	0.0116
V362L	G1873C	CA	35	0.199
V362D	T1874A	CA	299	0.0699
V362A	T1874C	CA	206	0.0880
L363M	T1876A	CA	492	0.0198
L363S	T1877C	CA	527	0.0185
A364T	G1879A	p2	451	0.111
A364P	G1879C	p2	77	0.145
A364S	G1879T	p2	187	0.0522
A364D	C1880A	p2	176	0.0475
E365Q	G1882C	p2	78	0.0357
E365V	A1883T	p2	433	0.0225
E365D	A1884T	p2	519	0.0188
A366T	G1885A	p2	566	0.0665
A366P	G1885C	p2	139	0.0702
A366S	G1885T	p2	286	0.0536
M367T	T1889C	p2	375	0.0446
M367R	T1889G	p2	90	0.0620
M367I	G1890A	p2	298	0.407
M367I	G1890T	p2	90	0.263